# Assay results as given in patent US5602278A (priority 1994, dated 1997).
# How the values were obtained:
# Stability = conditions: conditions not stated
# [1] = cited from earlier work
# [2] = tested on: cell lines which lack the levels of reductive enzymes; conditions: Denny et al. 1994; cited from earlier work
smiles,measurement,setting,value
O=C(O)CCCc1ccc([N+]([O-])(CCCl)CCCl)cc1,stability,Stability,stable
same,rearrangement in aprotic solvents,[1],rearranges in aprotic solvents to the more stable hydroxylamine derivative
same,hypoxic selectivity relative to chlorambucil,[2],no enhancement of hypoxic selectivity beyond the value for chlorambucil
